Source: patent US8454977B2, “Non-toxic biofilm inhibitor” (priority 2005, dated 2013)

Key:
[1] = Direct binding of peptides to steel; conditions: method not stated
[2] = tested on: human buccal epithelial cells; test: Buccal epithelial cell competition assay with wild-type PAO; conditions: for affinity for human buccal epithelial cells: competition with wild-type PAO, immobilized BECs; for Ki: read-out: apparent Ki for inhibiting viable cell binding to human buccal epithelial cells
[3] = tested on: biotinylated viable PAKwt cells; conditions: peptide 51 nM to 51 μM, high concentrations up to 100 μg/ml
[4] = tested on: biotinylated purified PAK pili; test: Competitive inhibition of biotinylated PAK pili binding to stainless steel; conditions: peptide 51 nM to 51 μM, high concentrations up to 100 μg/ml

Ac-A-C-I-S-T-Q-D-P-M-F-T-P-K-G-C-D-N-OH
binding of peptide to stainless steel [1]: did not bind | affinity for human buccal epithelial cells ([2]; listed as PAO(128-144)oxT130l): high affinity | affinity for human buccal epithelial cells ([2]; listed as PAO(128-144)oxT1301): enhanced | Ki [2]: 0.038 µM | effect of peptide on binding of biotinylated PAKwt cells to stainless steel [3]: unable to inhibit | effect of peptide on binding of biotinylated PAK pili to stainless steel ([4]; listed as PAO(128-144) T130l): do not inhibit the binding of pili | effect of peptide on binding of biotinylated PAK pili to stainless steel ([4]; listed as PAO(128-144)oxT130l): unable to inhibit | effect of peptide on binding of biotinylated PAK pili to stainless steel ([4]; listed as PAO(128-144)oxT1301): failed to inhibit binding to steel

Ac-A-C-K-S-T-Q-D-P-M-F-T-P-K-G-C-D-N-OH
Ki [2]: 12 µM | effect of peptide on binding of biotinylated PAK pili to stainless steel [4]: inhibit the binding
